Anti-infective test results gathered from many reports (values: NIAID ChemDB through PubChem).

Shared fields: tests on isolated targets

a–b is a range or a potency band.

SMILES | dose | strain or isolate | target | organism | read-out | result
CC[C@@H](C=O)NC(=O)[C@@H]1C[C@@H](OCc2ccccc2)CN1C(=O)[C@@H](NC(=O)C(F)c1ccccc1)C(C)C | - | - | NS3 protease | Hepatitis C virus | Ki | >100 µM
COc1ccc(CCC2(C3CCCC3)CC(O)=C(Sc3nnc(C)s3)C(=O)O2)cc1Cl | - | - | Nonstructural protein 5B | Hepatitis C virus | IC50 | <1 µM
CCC(C)[C@H](NC(=O)[C@@H](NC(=O)CCC(=O)O)C1CCCCC1)C(=O)N[C@@H](CCC(=O)O)C(=O)N[C@@H](CS)C(=O)O | 167 µM | - | Nonstructural protein 3 NTPase/helicase | Hepatitis C virus | inhibition | 82%
CC[C@@H](C=O)NC(=O)[C@@H]1C[C@@H](OCc2noc(-c3c(C)noc3C)n2)CN1C(=O)[C@@H](NC(=O)[C@@H](NC(=O)c1cnccn1)C(C)C)C(C)C | - | - | NS3 protease | Hepatitis C virus | Ki | 1–100 µM
O=C(O)CCC(=O)N[C@H](C(=O)N[C@@H](CCC(=O)O)C(=O)N[C@@H](CCC(=O)O)C(=O)N[C@@H](CS)C(=O)O)C1CCCCC1 | 16.7 µM | - | Nonstructural protein 3 NTPase/helicase | Hepatitis C virus | inhibition | 86%
COc1cc(C)c(S(=O)(=O)N(Cc2cccc(-c3cc4ccccc4o3)c2)[C@H](Cc2ccccc2)C(=O)O)c(C)c1C | - | - | RNA-dependent RNA polymerase | Hepatitis C virus | IC50 | <5 µM
CC[C@H](NC(=O)[C@H](CC(C)C)NC(=O)[C@@H](NC(=O)[C@@H](NC(=O)c1cnccn1)C(C)C)C(C)C)C(=O)C(=O)Nc1ccccc1 | - | - | NS3 protease | Hepatitis C virus | Ki | >100 µM
C=C1[C@H](COP(=O)(O)OP(=O)(O)OP(=O)(O)O)[C@@H](O)C[C@@H]1n1cnc2c(=O)[nH]c(N)nc21 | - | Polymerase mutant M550V/L526M/V553I | DNA polymerase | Hepatitis B virus | IC50 | 0.0313 µM
CN(C)c1cc(-c2ccccc2)nc2ccc(-c3nc4cc(C(=O)O)ccc4n3C3CCCCC3)cc12 | 33 µM | - | NS5B polymerase | Hepatitis C virus | inhibition | 76.46%
C=CC1C[C@@]1(NC(=O)[C@@H]1C[C@@H](Oc2cc(-c3ccccc3)nc3cc(OC)ccc23)CN1C(=O)[C@@H](NC(=O)Oc1ccccc1OC)C(C)(C)C)C(=O)NS(=O)(=O)C1(Cc2ccccc2)CC1 | - | BMS | NS3/NS4A protease | Hepatitis C virus | IC50 | 0.05–0.5 µM
CCC(CC)n1c(-c2ccc3nc(-c4cc(OC)ccc4-c4ccc(Cl)cc4)ccc3c2)nc2cc(C(=O)O)ccc21 | 33 µM | - | NS5B polymerase | Hepatitis C virus | inhibition | 102%
CCCCCc1ccc(CS(=O)(=O)Nc2cc(-c3ccccc3)sc2C(=O)O)cc1 | - | - | NS3 ATPase | Hepatitis C virus | IC50 | 5–20 µM
COc1ccc(-c2ccc(Cl)cc2)c(-c2ccc3cc(-c4nc5cc(C(=O)O)ccc5n4C4CC4)ccc3n2)c1 | 33 µM | - | NS5B polymerase | Hepatitis C virus | inhibition | 100%
O=C(O)CCC(=O)N[C@@H](CCC(=O)O)C(=O)N[C@@H](CCC(=O)O)C(=O)N[C@@H](CS)C(=O)O | 16.7 µM | - | Nonstructural protein 3 NTPase/helicase | Hepatitis C virus | inhibition | 32%
Cc1ccc(C(=O)N(CCO)c2cc(-c3ccccc3)sc2C(=O)O)cc1 | - | - | NS3 ATPase | Hepatitis C virus | IC50 | <5 µM
CC[C@@H](C=O)NC(=O)[C@@H]1C[C@@H](OCc2ccccc2)CN1C(=O)[C@@H](NC(=O)[C@@H](NC(=O)Nc1ccccc1C(=O)O)C(C)C)C(C)C | - | - | NS3 protease | Hepatitis C virus | Ki | 1–100 µM
O=C(O)C(Cc1ccccc1)N(Cc1ccc(-c2ccc(Cl)s2)o1)C(=O)c1ccc(Cl)cc1Cl | - | - | RNA-dependent RNA polymerase | Hepatitis C virus | IC50 | <5 µM
C=C[C@H]1C[C@@]1(NC(=O)[C@@H]1C[C@@H](Oc2cc(-c3ccccc3)nc3cc(OC)ccc23)CN1C(=O)[C@@H](NC(=O)OC(C)(C)C)C(C)C)C(=O)NS(=O)(=O)C1(COC)CC1 | - | BMS | NS3/NS4A protease | Hepatitis C virus | IC50 | <0.05 µM
O=C(O)[C@H](Cc1ccccc1)N(Cc1ccc(Br)o1)C(=O)c1ccc(Cl)cc1Cl | - | - | RNA-dependent RNA polymerase | Hepatitis C virus | IC50 | 5–20 µM
O=C(O)c1cnn2c(C3CCCCC3)c(-c3ccc(I)cc3)cnc12 | - | - | RNA-dependent RNA polymerase | Hepatitis C virus | IC50 | 1–10 µM
CC[C@@H](C=O)NC(=O)[C@@H]1C[C@@H](OCc2ccccc2)CN1C(=O)[C@@H](NC(=O)[C@@H](NC(=O)N1CCOCC1)C(C)C)C(C)C | - | - | NS3 protease | Hepatitis C virus | Ki | 1–100 µM
O=C(O)C(Cc1ccccc1)N(Cc1ccc(-c2cccc(C(F)(F)F)c2)s1)C(=O)c1ccc(Cl)cc1I | - | - | RNA-dependent RNA polymerase | Hepatitis C virus | IC50 | <5 µM
CC(C)=CCN(C(=O)c1ccc(Cl)cc1Cl)c1cc(-c2ccccc2)sc1C(=O)O | - | - | NS3 ATPase | Hepatitis C virus | IC50 | <5 µM
CC[C@@H](C=O)NC(=O)[C@@H]1C[C@@H](OCc2ccccc2)CN1C(=O)[C@@H](NC(=O)[C@H](CC1CCCCC1)NC(=O)c1cnccn1)C(C)C | - | - | NS3 protease | Hepatitis C virus | Ki | 1–100 µM
CCOC(=O)c1c(C)[nH]c(C)c1S(=O)(=O)Nc1cc(-c2ccccc2)sc1C(=O)O | - | - | NS3 ATPase | Hepatitis C virus | IC50 | 5–20 µM
O=C(O)CCC(=O)N[C@H](C(=O)N[C@@H](CCC(=O)O)C(=O)N[C@@H](Cc1ccccc1)C(=O)N[C@@H](CS)C(=O)O)C(c1ccccc1)c1ccccc1 | - | - | Nonstructural protein 3 NTPase/helicase | Hepatitis C virus | IC50 | >16.7 µM
O=C(O)c1ccc2c(c1)nc(-c1ccc3nc(-c4cc(C(=O)N5CCCC5)ccc4-c4ccc(Cl)cc4)cnc3c1)n2C1CCCCC1 | 100 µM | - | NS5B polymerase | Hepatitis C virus | inhibition | 101%
CN(C(=O)c1cc2ccccc2o1)c1cc(-c2ccccc2)sc1C(=O)O | - | - | NS3 ATPase | Hepatitis C virus | IC50 | >20 µM
O=C(O)c1cc2nc(-c3ccc(Oc4ccccc4)cc3)cc(-c3ccc(Cl)cc3)n2n1 | - | - | RNA-dependent RNA polymerase | Hepatitis C virus | IC50 | 1–10 µM
C=CC1C[C@@]1(NC(=O)[C@@H]1C[C@@H](Oc2cc(-c3ccccc3)nc3cc(OC)ccc23)CN1C(=O)[C@@H](NC(=O)OCCF)C(C)(C)C)C(=O)NS(=O)(=O)C1(Cc2ccccc2)CC1 | - | BMS | NS3/NS4A protease | Hepatitis C virus | IC50 | <0.05 µM
O=C(O)c1cc2nc(-c3ccc(Oc4ccccc4)cc3)cc(-c3ccc(-c4ccccc4)cc3)n2n1 | - | - | RNA-dependent RNA polymerase | Hepatitis C virus | IC50 | 1–10 µM
O=C(O)CCC(=O)N[C@H](C(=O)N[C@@H](CCC(=O)O)C(=O)N[C@@H](CCC(=O)O)C(=O)NC1(C(=O)O)CC1)C(c1ccccc1)c1ccccc1 | 167 µM | - | Nonstructural protein 3 NTPase/helicase | Hepatitis C virus | inhibition | 23%
COc1cc(C)c(S(=O)(=O)N(Cc2c(C(F)(F)F)nn(Cl)c2C(=O)c2ccc(Cl)cc2Cl)[C@@H](Cc2ccccc2)C(=O)O)c(C)c1C | - | - | RNA-dependent RNA polymerase | Hepatitis C virus | IC50 | 5–20 µM
O=C1CC(=O)OC(CCc2ccc(C(=O)N3CCC(O)CC3)cc2)(C2CCCC2)C1 | - | - | Nonstructural protein 5B | Hepatitis C virus | IC50 | >50 µM
O=C(O)[C@H](Cc1ccccc1)N(Cc1cc(-c2ccc(Cl)c(F)c2)cs1)C(=O)c1ccc(Cl)cc1Cl | - | - | RNA-dependent RNA polymerase | Hepatitis C virus | IC50 | <5 µM
CC[C@H](C)[C@H](NC(=O)[C@H](CC(C)C)NC(=O)CCCC(=O)O)C(=O)N[C@@H](CC1CCCCC1)C(=O)NC1(C(=O)O)CC1 | - | - | Nonstructural protein 3 NTPase/helicase | Hepatitis C virus | IC50 | >167 µM
CC(=O)c1ccc(CCC2(C3CCCC3)CC(=O)CC(=O)O2)cc1 | - | - | Nonstructural protein 5B | Hepatitis C virus | IC50 | 1–10 µM
C=C[C@H]1C[C@@]1(NC(=O)[C@@H]1C[C@@H](Oc2cc(-c3ccccc3)nc3cc(OC)ccc23)CN1C(=O)[C@@H](NC(=O)NC(C)(C)C)C(C)(C)C)C(=O)NS(=O)(=O)C1(Cc2ccccc2)CC1 | - | BMS | NS3/NS4A protease | Hepatitis C virus | IC50 | <0.05 µM
CCCN(C(=O)c1ccc(C)cc1)c1cc(-c2ccc(CCC(=O)O)cc2)sc1C(=O)O | - | - | NS3 ATPase | Hepatitis C virus | IC50 | 5–20 µM
O=C(O)c1cc2nc(-c3ccc(C(F)(F)F)cc3)cc(-c3ccc(Cl)cc3)n2n1 | - | - | RNA-dependent RNA polymerase | Hepatitis C virus | IC50 | >10 µM
COc1ccc(CCC2(C3CCCC3)CC3=C(CCCO3)C(=O)O2)c(OC)c1 | - | - | Nonstructural protein 5B | Hepatitis C virus | IC50 | >50 µM
CC[C@@H](C=O)NC(=O)[C@@H]1C[C@@H](OC(=O)Nc2ccc([N+](=O)[O-])cc2)CN1C(=O)[C@@H](NC(=O)[C@@H](NC(=O)c1cnccn1)C(C)C)C(C)C | - | - | NS3 protease | Hepatitis C virus | Ki | 1–100 µM
O=C(NCCS(=O)(=O)O)c1ccc2c(c1)nc(-c1ccc3nc(-c4ccccc4)cnc3c1)n2C1CCCCC1 | 33 µM | - | NS5B polymerase | Hepatitis C virus | inhibition | 74.09%
O=C(O)c1sc(-c2ccccc2)cc1NC(=O)N1CCN(Cc2ccc(Cl)cc2)CC1 | - | - | NS3 ATPase | Hepatitis C virus | IC50 | 5–20 µM
O=C(O)c1ccc2c(c1)nc(-c1cc3ccc(-c4ccccc4-c4ccccc4)nc3cc1F)n2C1CCCCC1 | 33 µM | - | NS5B polymerase | Hepatitis C virus | inhibition | 98.73%
CC[C@@H](C=O)NC(=O)[C@@H]1C[C@@H](OCc2ccccc2)CN1C(=O)[C@@H](NC(=O)[C@H](Cc1cccs1)NC(=O)c1cnccn1)C(C)C | - | - | NS3 protease | Hepatitis C virus | Ki | 1–100 µM
C=CC1C[C@@]1(NC(=O)[C@@H]1C[C@@H](Oc2cc(-c3ccccc3)nc3cc(OC)ccc23)CN1C(=O)[C@@H](NC(=O)OCCOC)C(C)(C)C)C(=O)NS(=O)(=O)C1(Cc2ccccc2)CC1 | - | BMS | NS3/NS4A protease | Hepatitis C virus | IC50 | 0.05–0.5 µM
O=C(O)c1cc2nc(-c3ccccc3)cc(-c3ccccc3Cl)n2n1 | - | - | RNA-dependent RNA polymerase | Hepatitis C virus | IC50 | >10 µM
O=C(O)CCC(=O)N[C@H](C(=O)N[C@@H](CCC(=O)O)C(=O)N[C@@H](Cc1ccc2ccccc2c1)C(=O)N[C@@H](CS)C(=O)O)C1CCCCC1 | 16.7 µM | - | Nonstructural protein 3 NTPase/helicase | Hepatitis C virus | inhibition | 90%

Percent inhibition refers to the dose given; in toxicity tests it is the harm to the cells. An empty or dashed field is not shown. ICn: concentration for n% inhibition. Neighbouring rows are from separate reports.